Measured values from US7405063B2, “Biooxidation capabilities of Candida sp” (Cognis Corporation, priority 2000, dated 2008).
Some results come without the dose or concentration used.

Tested on: C. tropicalis
Assay: Bioconversion testing of additional substrates (Phase II), shake flask, NMR and GC/MS
Assay type: cell-based
Settings: for Reaction or Major Reaction Product: Phase II screening summary

Structure (SMILES)	biooxidation outcome / predominant product (NMR, GC/MS)	Reaction or Major Reaction Product	vinyl unsaturation oxidized to diol, by NMR (24-30 hours biooxidation) [%]
CCc1ccc(CC)cc1 [1,4-diethyl benzene, 1,4-diethylbenzene]	4-ethylphenylacetic acid	–	–
CCCCCCCCCCCCCCC(O)CO (stereo not drawn) [1,2-Hexadecanediol]	–	(ω,ω-1) Dihydroxy Fatty Acid	–
C=CCCCCCCCCCCCCCCCC [1-Octadecene]	–	(ω,ω-1) Dihydroxy Fatty Acid	–
C=CCCCCCCCCCCCCCC [1-Hexadecene]	–	(ω,ω-1) Dihydroxy Fatty Acid	50
CCCCCCCCCCCCC1CO1 (stereo not drawn) [1,2-Epoxytetradecane]	–	(ω,ω-1) Dihydroxy Fatty Acid	–
